Experimental data reported in publication PMC6437269, “OXA-48-Mediated Ceftazidime-Avibactam Resistance Is Associated with Evolutionary Trade-Offs” (mSphere, 2019).

Key:
[1] = tested on: E. coli TOP10 expressing OXA-48:P68A and OXA-48:P68A,Y211S (MP105, MP106); type: cell-based
[2] = tested on: MP106 (E. coli TOP10 expressing OXA-48:P68A,Y211S); assay: microbe, parasite or virus in culture; type: cell-based; details: Escherichia coli; Table 3; MP106, OXA-48:P68A,Y211S in pCR-blunt II TOPO
OXA-48:P68A,Y211S [3] = biological target: T1, OXA-48:P68A,Y211S (Klebsiella pneumoniae, UniProt Q6XEC0, P68A/Y211S); assay: Steady-state enzyme kinetics, OXA-48:P68A,Y211S; type: biochemical; details: for Km / kcat: substrate hydrolysis, 25°C, pH 7.0, error = 95% CI
[4] = tested on: OXA-48:P68A and OXA-48:P68A,Y211S; type: biochemical; details: both substitutions compared to native OXA-48
OXA-48:P68A,Y211S [5] = biological target: T1, OXA-48:P68A,Y211S; assay: IC50 with nitrocefin as reporter substrate, OXA-48:P68A,Y211S; type: biochemical

With `CO[C@@]1(NC(=O)C(C(=O)O)c2ccsc2)C(=O)N2[C@@H](C(=O)O)C(C)(C)S[C@@H]21` (stereo partly drawn) [TRM, temocillin] the MIC decrease ([1]; {}) was 4-8 fold.

For `CC(C)(O/N=C(\C(=O)N[C@@H]1C(=O)N2C(C(=O)[O-])=C(C[n+]3ccccc3)CS[C@H]12)c1csc(N)n1)C(=O)O` [CAZ, ceftazidime], the MIC [2] was 8 µg/mL (≈ 14.6 µM), the “increased catalytic efficiency (kcat/Km) / hydrolysis” value (OXA-48:P68A,Y211S [3]; P68A,Y211S compared to native OXA-48) was > 20 fold and 20 fold and the Km (OXA-48:P68A,Y211S [3]) was 190 ± 40 µM. For the same compound, the kcat (OXA-48:P68A,Y211S [3]) was 42 ± 5 s⁻¹.

In the case of `C[C@@H](O)[C@H]1C(=O)N2C(C(=O)O)=C(S[C@@H]3CN[C@H](C(=O)N(C)C)C3)[C@H](C)[C@H]12` [MEM, meropenem], the MIC [2] is reported as 0.03 µg/mL (≈ 0.0782 µM), the kcat (OXA-48:P68A,Y211S [3]) is reported as “(2 ± 0.2) × 10^−3 s^−1” and the MIC decrease ([1]; {}) is reported as 4-16 fold.

For `CO/N=C(\C(=O)N[C@@H]1C(=O)N2C(C(=O)O)=C(COC(C)=O)CS[C@H]12)c1csc(N)n1` [FOT, cefotaxime], the “change in MIC” value ([1]; {}) was ≤ 2 fold dilution step.

In the case of `CO/N=C(\C(=O)N[C@@H]1C(=O)N2C(C(=O)[O-])=C(C[N+]3(C)CCCC3)CS[C@H]12)c1csc(N)n1` [FEP, cefepime], the Km (OXA-48:P68A,Y211S [3]) is reported as 1460 µM, the “change in MIC” value ([1]; {}) is reported as ≤ 2 fold dilution step and the “change in catalytic efficiency” value [4] is reported as “No change”.

Compound `CCN1CCN(C(=O)N[C@@H](C(=O)N[C@@H]2C(=O)N3[C@@H]2SC(C)(C)[C@@H]3C(=O)O)c2ccccc2)C(=O)C1=O` [PIP, piperacillin] has a Km (OXA-48:P68A,Y211S [3]; read-out: Km) of 155 ± 38 µM.

`NC(=O)[C@@H]1CC[C@@H]2CN1C(=O)N2OS(=O)(=O)O` [Avibactam, avibactam] was tested, and the “decrease in inhibitory activity” value (OXA-48:P68A,Y211S [5]; P68A,Y211S compared to native OXA-48, listed as AVI) was > 5 fold and 5 fold.

`CC1(C)S[C@@H]2[C@H](NC(=O)[C@H](N)c3ccccc3)C(=O)N2[C@H]1C(=O)O` [AMP, ampicillin] was tested, and the kcat (OXA-48:P68A,Y211S [3]) was 18 ± 1 s⁻¹ and the Km (OXA-48:P68A,Y211S [3]; read-out: Km) was 211 ± 26 µM.

`C[C@@H](O)[C@H]1C(=O)N2C(C(=O)O)=C(S[C@@H]3CN[C@H](CNS(N)(=O)=O)C3)[C@H](C)[C@H]12` [DOR, doripenem] was tested, and the MIC [2] was 0.03 µg/mL (≈ 0.0713 µM) and the “change in MIC” value ([1]; both mutants versus native OXA-48) was “No change”.

`O=C(Cc1cccs1)N[C@@H]1C(=O)N2C(C(=O)O)=C(/C=C/c3ccc([N+](=O)[O-])cc3[N+](=O)[O-])CS[C@H]12` [NIT, nitrocefin] gave a kcat (OXA-48:P68A,Y211S [3]) of 12 ± 1 s⁻¹ and a Km (OXA-48:P68A,Y211S [3]; read-out: Km) of 63 ± 9 µM.

For `C[C@@H](O)[C@H]1C(=O)N2C(C(=O)O)=C(S[C@@H]3CN[C@H](C(=O)Nc4cccc(C(=O)O)c4)C3)[C@H](C)[C@H]12` [ETP, ertapenem], the MIC [2] was 0.06 µg/mL (≈ 0.126 µM) and the MIC decrease ([1]; {}) was 4-16 fold.

`C[C@]1(Cn2ccnn2)[C@H](C(=O)O)N2C(=O)C[C@H]2S1(=O)=O` [Tazobactam, tazobactam] was tested, and the “reduction in the IC50” value (OXA-48:P68A,Y211S [5]; P68A,Y211S compared to native OXA-48, 5 min) was > 3 fold and the IC50 (OXA-48:P68A,Y211S [5]; nitrocefin reporter substrate, enzyme and inhibitor incubated 5 min, error = 95% CI) was 31 ± 5 µM.

`C[C@@H](O)[C@H]1C(=O)N2C(C(=O)O)=C(SCCN=CN)C[C@H]12` [IMI, imipenem] was tested, and the Km (OXA-48:P68A,Y211S [3]) was 14 ± 3 µM, the kcat (OXA-48:P68A,Y211S [3]) was 0.57 ± 0.04 s⁻¹ and the MIC decrease ([1]; {}) was 4-16 fold.

≈ marks a conversion by molar mass, not a printed value. Where “and” joins values, the source holds several entries; their conditions need not be identical. Equal entries are not always repeated. Where two headings read alike, the source gives them in different places.
